SMILES strings stand for the structures.

For one assay, the target named is HIV protease (HIV-1) (Human immunodeficiency virus type 1 group M subtype B, UniProt P04585). Kind of assay: HIV-specific protease enzyme test (synthetic peptide cleavage, RP-HPLC). The note with it: read-out: IC50 (RP-HPLC) (μM) HIV-1; 50% inhibition of protease activity; purified HIV protease, synthetic Gag cleavage-site peptide. The protocol: This is documented by an HIV-specific protease enzyme test.
The results of the examples described below were determined by the HIV test system described in the following literature references [compare Hansen, J., Billich, S., Schulze, T., Sukrow, S. and Molling, K. (1988), EMBO Journal, volume 7, No. 6, pages 1785-1791]: purified HIV protease was incubated with a synthetic peptide which imitates a cutting site in the Gag precursor protein and represents an in vivo cleavage site of HIV protease. The cleavage products formed from the synthetic peptide were analysed by reverse phase high performance liquid chromatography (RP-HPLC). The IC50 values stated relate to the substance concentration which causes 50% inhibition of protease activity under the abovementioned test conditions.
`CC(=O)c1ccc(NC(=O)N[C@@H](CCCNC(N)=NS(=O)(=O)c2ccc(C)cc2)C(=O)N[C@H](C(=O)N[C@H](CO)Cc2ccccc2)C(C)C)cc1`: the IC50 amounted to 0.013 µM.
For the compound `CCCCOC(=O)CCNC(=O)N[C@@H](CCCNC(N)=NS(=O)(=O)c1ccc(C)cc1)C(=O)N[C@H](C(=O)N[C@H](CO)Cc1ccccc1)C(C)C`, the IC50 is 1.6 µM.
`COC(C)(C)CNC(=O)N[C@@H](CCCNC(N)=NS(=O)(=O)c1ccc(C)cc1)C(=O)N[C@H](C(=O)NC(C=O)Cc1ccccc1)C(C)C` (stereo partly shown): the IC50 worked out at 0.15 µM.
As to `Cc1c(C)c(S(=O)(=O)N=C(N)NCCC[C@H](NC(=O)OCC2c3ccccc3-c3ccccc32)C(=O)N[C@H](C(=O)N[C@H](CO)Cc2ccccc2)C(C)C)c(C)c2c1OC(C)(C)CC2`, the IC50 was found to be 0.0024 µM.
`Cc1ccc(S(=O)(=O)N=C(N)NCCC[C@H](NC(=O)OCc2ccccc2)C(=O)N[C@H](C(=O)N[C@H](CO)Cc2ccccc2)C(C)C)cc1`: the IC50 came out at 14 µM.
Same read-out and setting: to `CCOC(=O)c1ccc(NC(=O)N[C@@H](CCCNC(N)=NS(=O)(=O)c2ccc(C)cc2)C(=O)N[C@H](C(=O)NC(C=O)Cc2ccccc2)C(C)C)cc1` (single isomer, unassigned) belongs 0.12 µM.
Take `COC(=O)CCCNC(=O)N[C@@H](CCCNC(N)=NS(=O)(=O)c1ccc(C)cc1)C(=O)N[C@H](C(=O)NC(C=O)Cc1ccccc1)C(C)C` (single isomer, unassigned) [49]: the IC50 is 0.26 µM.
On to `COC(=O)CCCNC(=O)N[C@@H](CCCNC(N)=NS(=O)(=O)c1ccc(C)cc1)C(=O)N[C@H](C(=O)NC(C=O)Cc1ccccc1)C(C)C` (single isomer, unassigned) [50], for which the IC50 was 0.14 µM.
`CCCCOC(=O)CCNC(=O)N[C@@H](CCCNC(N)=NS(=O)(=O)c1ccc(C)cc1)C(=O)N[C@H](C(=O)NC(C=O)Cc1ccccc1)C(C)C` (single isomer, unassigned) [51]: the IC50 came out at 2.1 µM.
`CCCCOC(=O)CCNC(=O)N[C@@H](CCCNC(N)=NS(=O)(=O)c1ccc(C)cc1)C(=O)N[C@H](C(=O)NC(C=O)Cc1ccccc1)C(C)C` (single isomer, unassigned) [52]: the IC50 worked out at 12 µM.
As for `CC(=O)c1ccc(NC(=O)N[C@@H](CCCNC(N)=NS(=O)(=O)c2ccc(C)cc2)C(=O)N[C@H](C(=O)NC(C=O)Cc2ccccc2)C(C)C)cc1` (single isomer, unassigned) [57], the IC50 amounted to 1.5 µM.
As to `CC(=O)c1ccc(NC(=O)N[C@@H](CCCNC(N)=NS(=O)(=O)c2ccc(C)cc2)C(=O)N[C@H](C(=O)NC(C=O)Cc2ccccc2)C(C)C)cc1` (single isomer, unassigned) [58], the IC50 came out at 0.0018 µM.

Another assay deals with HCMV (Davis strain). Kind of assay: Anti-HCMV screening test: spread of cytopathogenic effect in HELF cell cultures. The note with it: read-out: IC50 (μM) HCMV, concentration causing 50% inhibition of the CPE, HELF cells, 6 days. Type of assay: cell-based, human cytomegalovirus. On the technique in general: Damage to the host cells serves as the signal in cytopathic effect assays.
For `CCOC(=O)c1ccc(NC(=O)N[C@@H](CCCNC(N)=NS(=O)(=O)c2ccc(C)cc2)C(=O)N[C@H](C(=O)NC(C=O)Cc2ccccc2)C(C)C)cc1` (single isomer, unassigned), the IC50 was 0.24 µM.
